Results deposited as PubChem BioAssay AID624099 (ICCB-Longwood, 2012).

Assay: 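Host factors E2 relies on to silence an HPV18 LCR reporter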 (primary screen)
Cells: human C33A cervical carcinoma cells (HPV-negative) stably expressing BPV1 E2 and an HPV18 LCR luciferase reporter
Reagent: siRNA pool against human genes, 40 nM
Duration: 72 h
Detection: 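HPV18 LCR reporter light per well, converted to plate-wise z-scores that exclude control wells, and averaged over triplicate plates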
Direction: mean z-score and z-score: higher = stronger reporter signal, weaker E2 silencing
Active means: 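Mean z ≥ 2 together with z ≥ 2 in two or more of the three replicates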
In all, the deposit lists about 21,000 reagents; shown is a random part of them. 497 of them (2.4%) were called active. 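Higher z means weaker E2 silencing; only reporter increases were scored, and knock-downs that hurt cell survival may mask genuine repressor factors.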 Entries without a mark were called inactive. No sequences are given here.

What is on record for PPP1R26 (GeneID 9858)?
mean z-score: -0.08; z-score, replicate A: -0.36; z-score, replicate B: -0.15; z-score, replicate C: 0.27

How did the screen score CEP85 (GeneID 64793)?
mean z-score: -1.67; z-score, replicate A: -1; z-score, replicate B: -2.07; z-score, replicate C: -1.96

Which result is listed for EMC10 (GeneID 284361)?
mean z-score: -0.5; z-score, replicate A: -0.74; z-score, replicate B: -0.24; z-score, replicate C: -0.5

For LOC128208 (retired record) (GeneID 128208), what does the deposit list?
mean z-score: -1.8; z-score, replicate A: -1.24; z-score, replicate B: -2.04; z-score, replicate C: -2.12

With SF3A1 (GeneID 10291), what was measured?
mean z-score: -0.8; z-score, replicate A: -0.84; z-score, replicate B: -0.78; z-score, replicate C: -0.79

What is on record for CNR1 (GeneID 1268)?
mean z-score: 0.74; z-score, replicate A: 0.72; z-score, replicate B: 0.95; z-score, replicate C: 0.53

With MYO15A (GeneID 51168), how do the results read?
mean z-score: 0.08; z-score, replicate A: 0.21; z-score, replicate B: 0.09; z-score, replicate C: -0.05

For LINC00954 (GeneID 400946), what does the deposit list?
mean z-score: -1.52; z-score, replicate A: -1.54; z-score, replicate B: -1.3; z-score, replicate C: -1.71

Which result is listed for SLC25A22 (GeneID 79751)?
mean z-score: 0.66; z-score, replicate A: 0.73; z-score, replicate B: 0.92; z-score, replicate C: 0.34

What did the screen give for DDRGK1 (GeneID 65992)?
mean z-score: -0.47; z-score, replicate A: -0.42; z-score, replicate B: -0.44; z-score, replicate C: -0.55

Which result is listed for PRMT7 (GeneID 54496)?
mean z-score: 1.18; z-score, replicate A: 0.86; z-score, replicate B: 1.04; z-score, replicate C: 1.65

With TIMM50 (GeneID 92609), how do the results read?
mean z-score: 0.15; z-score, replicate A: -0.03; z-score, replicate B: 0.19; z-score, replicate C: 0.28

With ZNF322P1 (GeneID 387328), how do the results read?
mean z-score: 0.08; z-score, replicate A: 0.03; z-score, replicate B: 0.28; z-score, replicate C: -0.06

With LOC402522 (retired record) (GeneID 402522), how do the results read?
mean z-score: 0.39; z-score, replicate A: 0.2; z-score, replicate B: 0.3; z-score, replicate C: 0.68

With LINC02076 (GeneID 400579), how do the results read?
mean z-score: 1.93; z-score, replicate A: 2.02; z-score, replicate B: 1.71; z-score, replicate C: 2.06

What is on record for E2F1 (GeneID 1869)?
mean z-score: -1.15; z-score, replicate A: -1.44; z-score, replicate B: -1; z-score, replicate C: -1

How did the screen score LCTL (GeneID 197021)?
mean z-score: -0.53; z-score, replicate A: -0.41; z-score, replicate B: -0.81; z-score, replicate C: -0.38

With ECI1 (GeneID 1632), how do the results read?
mean z-score: 0.42; z-score, replicate A: 0.3; z-score, replicate B: 0.42; z-score, replicate C: 0.53

Which result is listed for ZNF354C (GeneID 30832)?
mean z-score: 1.3; z-score, replicate A: 1.35; z-score, replicate B: 1.33; z-score, replicate C: 1.22

With SINHCAF (GeneID 58516), what does the deposit list?
mean z-score: 0.96; z-score, replicate A: 0.86; z-score, replicate B: 0.83; z-score, replicate C: 1.18

With NKTR (GeneID 4820), what was measured?
mean z-score: 0.58; z-score, replicate A: 0.43; z-score, replicate B: 0.52; z-score, replicate C: 0.8
